In the data set the test system is HCV replicon. Briefly: IC50 assay with HCV luciferase replicon cell-line. Format: cell-based. The conditions noted are these: TC50/IC50. An excerpt: Plating Cells: The cells used in these assays were a liver-derived Huh7 cell line containing an HCV replicon bearing a luciferase reporter gene. The Huh7 cell-line can be obtained from various sources including the Japanese Collection of Research Bioresources (JCRB), Osaka, Japan. The Huh7 cell line containing an HCV replicon bearing a luciferase reporter gene can be prepared essentially as described by Vrolijk J M, et al. (J Virol Methods. (2003) 110(2):201-9). Cells were passaged when they reached about 70% confluency.
These 0.5 mM dilutions were then used to further serially dilute the compounds in DMEM+2% FBS+0.5% DMSO to keep the concentration of DMSO in each condition identical.
The Glo Lysis Buffer and the Bright Glow reagent was allowed to warm to room temperature for about 30 min in the dark. […] The media was removed from cells, and the cells were gently washed with about 100 μL of phosphate buffered saline (PBS). […] The plates were gently rocked for about 15 min at room temperature in the dark to ensue complete cell lysis, then about 50 μL of the Bright Glo reagent was added to each well of the 96-well plate, and the reagent was mixed well with the cell lysate. It should be noted that luciferin has a half-life of approximately 30 min at room temperature after it is added to the plate. […] The data was saved and used to calculate the percent inhibition of luciferase activity at each drug concentration. […] Curve equation: (m1−m2)/(1+(x/m3)^m4); m1=100; m2=0.01; m3=0.01; m4=0.01; the equation is: […]
On the technique in general: In antiviral work, replicon cells carry a viral genome segment that copies itself.

Molecules are shown by their SMILES.

`O=C(Nc1ccn(C2O[C@H](CO)[C@@H](O)C2(F)F)c(=O)n1)c1cc2c(cc1[N+](=O)[O-])OCO2` (stereo in doubt) [Compound 9]: the “Therapeutic Index” value was >10,700.

`CC1(C)Cc2ccc(C(=O)Nc3ccn([C@@H]4O[C@H](CO)C(O)C4(F)F)c(=O)n3)cc2O1` (stereo partly drawn) [Compound 4]: the “Therapeutic Index” value is given as 6565.

In the case of `O=C(Nc1ccn([C@@H]2O[C@H](CO)C(O)C2(F)F)c(=O)n1)c1ccc2c(c1)OCCCO2` (stereo partly drawn) [Compound 3], the “Therapeutic Index” value came out at 9628.

`O=C(Nc1ccn(C2O[C@H](CO)[C@@H](O)C2(F)F)c(=O)n1)c1ccc2c(c1)OCCO2` (stereo partly drawn) [Compound 2, N-(1-((4R,5R)-3,3-difluoro-4-hydroxy-5-(hydroxymethyl)tetrahydrofuran-2-yl)-2-oxo-1,2-dihydropyrimidin-4-yl)-2,3-dihydrobenzo[b][1,4]dioxine-6-carboxamide]: the “Therapeutic Index” value came to 6790.

With `O=C(Nc1ccn([C@@H]2O[C@H](CO)C(O)C2(F)F)c(=O)n1)c1ccc2c(c1)CCO2` (stereo partly drawn) [Compound 5], the “Therapeutic Index” value is 6579.

For the compound `O=C(Nc1ccn(C2O[C@H](CO)[C@@H](O)C2(F)F)c(=O)n1)c1ccc2c(c1)OCO2` (stereo partly drawn) [Compound 1, N-(1-((4R,5R)-3,3-difluoro-4-hydroxy-5-(hydroxymethyl)tetrahydrofuran-2-yl)-2-oxo-1,2-dihydropyrimidin-4-yl)benzo[d][1,3]dioxole-5-carboxamide], the “Therapeutic Index” value was determined as 7910.

On to `O=C(Nc1ccn([C@@H]2O[C@H](CO)C(O)C2(F)F)c(=O)n1)c1ccc2c(c1)OC(F)(F)O2` (stereo partly drawn) [Compound 7], for which the “Therapeutic Index” value is 4051.

`O=C(Nc1ccn([C@@H]2O[C@H](CO)C(O)C2(F)F)c(=O)n1)c1c(Br)ccc2c1OCO2` (stereo partly drawn) [Compound 6]: the “Therapeutic Index” value was 6512.

`Cc1cc2c(cc1C(=O)Nc1ccn([C@@H]3O[C@H](CO)C(O)C3(F)F)c(=O)n1)OCCO2` (stereo partly drawn) [Compound 8]: the “Therapeutic Index” value is given as 370.
